Laboratory results: PubChem BioAssay AID624099 (ICCB-Longwood, 2012)

Assay: 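Host factors E2 relies on to silence an HPV18 LCR reporter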 (primary screen)
Cells: human C33A cervical carcinoma cells (HPV-negative) stably expressing BPV1 E2 and an HPV18 LCR luciferase reporter
Reagents: siRNA pool against human genes, 40 nM
Time to read-out: 72 h
Measurement: 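HPV18 LCR reporter light per well, converted to plate-wise z-scores that exclude control wells, and averaged over triplicate plates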
Reading the numbers: mean z-score and z-score: higher = stronger reporter signal, weaker E2 silencing
Active means: 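Mean z ≥ 2 together with z ≥ 2 in two or more of the three replicates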
This is a random part of about 21,000 reagents. Of all reagents, 497 (2.4%) are marked active. 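Higher z means weaker E2 silencing; only reporter increases were scored, and knock-downs that hurt cell survival may mask genuine repressor factors.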 Reagent sequences are not shown.

| gene | mean z-score | z-score, replicate A | z-score, replicate B | z-score, replicate C | outcome |
| --- | --- | --- | --- | --- | --- |
| KCNK7 (potassium two pore domain channel subfamily K member 7) | -0.95 | -0.73 | -0.92 | -1.2 | inactive |
| GUCA1A (guanylate cyclase activator 1A) | 0.62 | 0.74 | 0.52 | 0.6 | inactive |
| LOC285658 (retired record) | -4.61 | -4.79 | -4.52 | -4.51 | inactive |
| FHIP2B (FHF complex subunit HOOK interacting protein 2B) | 1.59 | 1.44 | 1.64 | 1.69 | inactive |
| LOC285110 (retired record) | -0.25 | -0.01 | -0.37 | -0.37 | inactive |
| EPHX1 (epoxide hydrolase 1) | 1.57 | 1.27 | 2.06 | 1.37 | inactive |
| IRF1 (interferon regulatory factor 1) | -0.91 | -0.95 | -0.74 | -1.05 | inactive |
| RNF19A (ring finger protein 19A, RBR E3 ubiquitin protein ligase) | -0.12 | -0.32 | 0.17 | -0.2 | inactive |
| ACTC1 (actin alpha cardiac muscle 1) | 1.97 | 1.94 | 1.85 | 2.11 | inactive |
| ERICH2 (glutamate rich 2) | 0.25 | 0.46 | 0.34 | -0.06 | inactive |
| UBE2F (ubiquitin conjugating enzyme E2 F (putative)) | 0.71 | 0.69 | 0.24 | 1.2 | inactive |
| ECM1 (extracellular matrix protein 1) | 2.05 | 2.58 | 1.65 | 1.93 | inactive |
| UBASH3A (ubiquitin associated and SH3 domain containing A) | 0.44 | 0.59 | -0.05 | 0.79 | inactive |
| SMYD3 (SET and MYND domain containing 3) | 0.79 | 0.54 | 0.86 | 0.97 | inactive |
| ATP13A3 (ATPase 13A3) | -1.25 | -0.95 | -1.46 | -1.33 | inactive |
| LOC391373 (retired record) | -0.03 | -0.29 | 0.35 | -0.16 | inactive |
| LOC401923 (retired record) | 0.32 | 0.51 | -0.01 | 0.44 | inactive |
| ATP2B1-AS1 (ATP2B1 antisense RNA 1) | 0.29 | 0.18 | 0.46 | 0.23 | inactive |
| NGRNP1 (NGRN pseudogene 1) | 0.52 | 0.59 | 0.66 | 0.31 | inactive |
| PIK3C2B | -0.55 | -1.06 | -0.56 | -0.02 | inactive |
| SSH3 (slingshot protein phosphatase 3) | -0.37 | -0.52 | -0.33 | -0.24 | inactive |
| PMS1 (PMS1 homolog 1, mismatch repair system component) | 0.69 | 0.68 | 0.77 | 0.61 | inactive |
| FERMT1 (FERM domain containing kindlin 1) | 0.1 | 0.62 | 0.03 | -0.33 | inactive |
| FLJ10088 (retired record) | -0.76 | -0.79 | -0.44 | -1.05 | inactive |
| GABRG3 (gamma-aminobutyric acid type A receptor subunit gamma3) | 0.56 | 0.79 | 0.48 | 0.42 | inactive |
| EEF1A1P33 | -0.17 | 0.01 | -0.12 | -0.4 | inactive |
| CYB5A (cytochrome b5 type A) | 0.5 | 0.52 | 0.51 | 0.48 | inactive |
| ZBTB7B (zinc finger and BTB domain containing 7B) | 1.21 | 1.22 | 0.93 | 1.47 | inactive |
| BBS7 (Bardet-Biedl syndrome 7) | 0.72 | 1.05 | 0.53 | 0.57 | inactive |
| MT-CO2 (mitochondrially encoded cytochrome c oxidase II) | 0.55 | 0.62 | 0.78 | 0.25 | inactive |
| LDHAL6B (lactate dehydrogenase A like 6B) | 2.19 | 1.83 | 2.1 | 2.63 | active |
| KRTAP13-2 (keratin associated protein 13-2) | -0.96 | -0.88 | -1.14 | -0.87 | inactive |
| COX6A1P2 (COX6A1 pseudogene 2) | -0.1 | -0.19 | 0.06 | -0.18 | inactive |
| ZNF140 (zinc finger protein 140) | 0.3 | 0.29 | 0.36 | 0.26 | inactive |
| ZNF445 (zinc finger protein 445) | 0.74 | – | 0.56 | 0.93 | inactive |
| ZNF701 (zinc finger protein 701) | -1.23 | -1.71 | -0.93 | -1.06 | inactive |
| BLM (BLM RecQ like helicase) | -0.13 | -0.1 | -0.19 | -0.12 | inactive |
| KRCC1 (lysine rich coiled-coil 1) | -0.6 | -0.22 | -0.78 | -0.8 | inactive |
| TASOR (transcription activation suppressor) | 0.77 | 0.9 | 0.6 | 0.8 | inactive |
| UBXN7 (UBX domain protein 7) | -0.47 | -0.55 | -0.52 | -0.32 | inactive |
| WAC-AS1 (WAC antisense RNA 1) | 0.7 | 0.11 | 1.31 | 0.68 | inactive |
| LOC147941 (retired record) | 0.3 | 0.31 | 0.03 | 0.57 | inactive |
| LINC02111 (long independently transcribed non-coding RNA 2111) | -1.7 | -1.39 | -1.84 | -1.88 | inactive |
| PMCH (pro-melanin concentrating hormone) | 0.07 | -0.3 | 0.17 | 0.33 | inactive |
| CDK2AP2 (cyclin dependent kinase 2 associated protein 2) | -0.91 | -1.02 | -0.92 | -0.8 | inactive |
| ANAPC1 (anaphase promoting complex subunit 1) | -0.06 | 0.05 | -0.16 | -0.07 | inactive |
| ZBTB5 (zinc finger and BTB domain containing 5) | 0.66 | 0.46 | 0.65 | 0.87 | inactive |
| EXOC8 (exocyst complex component 8) | -0.11 | -0.01 | -0.13 | -0.19 | inactive |
| CSF3 (colony stimulating factor 3) | 0.66 | 0.92 | 0.5 | 0.57 | inactive |
| ACTR3B (actin related protein 3B) | -0.17 | -0.09 | -0.06 | -0.35 | inactive |
| LINC02868 (long independently transcribed non-coding RNA 2868) | -1.07 | -0.81 | -1.03 | -1.37 | inactive |
| OR10T2 (olfactory receptor family 10 subfamily T member 2) | 0.07 | 0.53 | -0.12 | -0.18 | inactive |
| ITGB1BP2 (integrin subunit beta 1 binding protein 2) | -1.38 | -1.09 | -1.24 | -1.83 | inactive |
| VEGFB (vascular endothelial growth factor B) | -0.09 | -0.19 | -0.16 | 0.08 | inactive |
| ARNT2 (aryl hydrocarbon receptor nuclear translocator 2) | 0.57 | 0.66 | 0.49 | 0.57 | inactive |
| PGP (phosphoglycolate phosphatase) | -0.03 | -0.1 | 0.32 | -0.32 | inactive |
| FBLN7 (fibulin 7) | 2.4 | 2.28 | 2.57 | 2.35 | active |

Called active, of those listed so far:
| gene | mean z-score | z-score, replicate A | z-score, replicate B | z-score, replicate C | outcome |
| --- | --- | --- | --- | --- | --- |
| LDHAL6B (lactate dehydrogenase A like 6B) | 2.19 | 1.83 | 2.1 | 2.63 | active |
| FBLN7 (fibulin 7) | 2.4 | 2.28 | 2.57 | 2.35 | active |
